Results of unrelated studies side by side (data: NIAID ChemDB).

Shared fields: whole-cell or culture tests; agent: Mycobacterium tuberculosis

MIC50, MIC90 and the like: level of inhibition, or share of isolates inhibited.

compound	cell line	tested at	strain or isolate	method	mutations	read-out	result
COC(=O)/C(=C/Cc1ccccc1)CN=[N+]=[N-]			H37Rv	resazurin		MIC	>128 µM
CCCCOc1ccc2nccc(N/N=C/c3ccc(OC)c4ccccc34)c2c1	VERO		H37Rv			MIC	6.25 µg/mL
COC(=O)/C(=C/Cc1ccccc1Cl)CN=[N+]=[N-]			H37Rv	resazurin		MIC	>128 µM
CCC(C(=O)NN)c1ccccc1		0.25 µg/mL				inhibition	60%
CCCCc1ccc2nc(C)cc(NN)c2c1	VERO	12.5 µg/mL	H37Rv			inhibition	99%
CC1CC(=O)c2cc(-c3ccccc3)oc2C1		12.5 µg/mL	H37Rv	BACTEC		inhibition	31%
CCCCCCCCOc1cccc(NC(=O)OCC[NH+]2CCCC2)c1			My 331/88			MIC	16 µM
CC1(C)C=Cc2c(cc3oc(-c4ccc(O)cc4)cc(=O)c3c2O)O1				agar / visual reading		MIC	110 µg/mL
CCCCCCCC(=O)N1[C@H]2[C@@H]1CN1C3=C(C(=O)C(N)=C(C)C3=O)[C@@H](COC(N)=O)[C@@]21OC			ETA-R			MIC	0.4 µg/mL
COc1cccc2c(NN)cc(C)nc12	VERO	12.5 µg/mL	H37Rv			inhibition	54%
O=C(O)CN1CCCC[C@H]1[C@@H](O)c1cc(C(F)(F)F)nc2c(C(F)(F)F)cccc12						MIC	>128 µM
CCOC(=O)c1cc(CNc2cc(F)ccc2F)on1			H37Rv	resazurin		MIC	7.3 µM
O=C1C(Cl)=C(Nc2ccccn2)C(=O)c2ccccc21		12.5 µg/mL	H37Rv	BACTEC		inhibition	100%
CCOC(=O)c1cc(CNc2cccc(C#N)c2)on1			H37Rv	low oxygen		MIC	128 µM
O=c1oc2ccc(Cl)cc2c(=S)n1-c1ccc(Cl)c(Cl)c1			My 331/88			MIC	1 µM
CCCCCCCCCCOc1ccccc1NC(=O)OCC[NH+]1CCCC1			My 331/88			MIC	16 µM
CC1=C(N)C(=O)C2=C(C1=O)N1C[C@H]3[C@H](N3C)[C@]1(O)[C@@H]2COC(N)=O			TAC-R			MIC	0.4 µg/mL
CN1CCN(CCCN2c3ccccc3Sc3ccc(C(F)(F)F)cc32)CC1			Isoniazid-resistant			MIC	8 µg/mL
Cc1ccc(C)c(NC2=CC(=O)C(=O)c3ccccc32)c1			H37Rv	BACTEC		MIC	1.56 µg/mL
S=c1oc2c(Cl)cc(Cl)cc2c(=S)n1-c1ccc(Br)cc1			331/81			MIC	16 µM
Nc1nc(-c2ccccc2)c(N=Nc2c(Cl)cccc2Cl)s1		6.25 µg/mL	H37Rv	BACTEC		inhibition	79%
C=CCc1ccc(OC)c(OC)c1						MIC	>128 µg/mL
C/C(=N\N=C(N)N)c1c(C)nn(C(=N)N)c1C.Cl.Cl			H37Rv	BACTEC		MIC bound	>12.5 µg/mL
CC[C@@H](CO)NCCN[C@@H](CC)CO			Isolate O			MIC	>2.5 µg/mL
Nc1nc(-c2cccc([N+](=O)[O-])c2)c(N=Nc2ccc(Br)cc2)s1		6.25 µg/mL	H37Rv	BACTEC		inhibition	0%
O=c1oc2ccc(Cl)cc2c(=O)n1-c1ccc(Br)cc1			My 331/88			MIC	4 µM
CCOC(=O)c1cc(CNc2ccc(OC)nc2)on1			H37Rv			MIC	127.5 µM
CCCOc1cccc(NC(=O)OCC[NH+]2CCCC2)c1			My 331/88			MIC	500 µM
S=c1oc2ccc(Cl)cc2c(=S)n1-c1ccc(Cl)cc1			My 331/88			MIC	1 µM
CC[C@@H](CO)NCCN[C@@H](CC)CO			17 strains			MIC	0.95–1.9 µg/mL
CN(C)c1cc(C(F)(F)F)nc2c(C(F)(F)F)cccc12						MIC	>128 µM
CC(=O)/C=C/CCCCCCCCCCCCCCCCCCCc1ccc2c(c1)OCO2						MIC	>128 µg/mL
O=C1CC(C2c3ccccc3-c3ccccc32)C(=O)N1Cc1ccccc1			H37Rv			MIC	45.3 µM
Cc1ccc(-n2c(=O)oc3ccc(Cl)cc3c2=O)cc1			My 331/88			MIC	16 µM
CCOC(=O)c1cc(-c2cc(C(F)(F)F)cc(C(F)(F)F)c2)on1			H37Rv	resazurin		MIC	0.7 µM
S=c1oc2c(Cl)cc(Cl)cc2c(=S)n1-c1ccccc1			331/81			MIC	8 µM
COC(=O)[C@@]12OC[C@]34[C@H]([C@@H](O)[C@@H]1O)[C@@]1(C)CC(=O)C(O)=C(C)[C@@H]1C[C@H]3OC(=O)[C@H](OC(=O)C=C(C)C)[C@@H]24			H37Rv	BACTEC		MIC	≥12.8 µg/mL
C[C@H]1NCc2cc(-c3ccc4c(=O)c(C(=O)O)cn(C5CC5)c4c3OC(F)F)ccc21			10 strains			MIC90	1 µg/mL
CCCCOc1ccccc1NC(=O)OCC[NH+]1CCCC1			My 331/88			MIC	500 µM
O=c1oc2ccc(Cl)cc2c(=S)n1-c1ccc(Br)cc1			My 331/88			MIC	1 µM
CCCCCCOc1ccccc1NC(=O)OCC[NH+]1CCCC1			My 331/88			MIC	62.5 µM
O=C(O)/C=C/C(=O)Nc1ccc2c(c1)oc(=O)c1ccccc12		12.5 µg/mL	H37Rv	BACTEC		inhibition	-19%
COc1ccc(CN(C)CCCC(C#N)(c2ccc(OC)c(OC)c2)C(C)C)cc1OC			H37Rv	resazurin		MIC99	>1000 µM
COc1ccc2c(NN)ccnc2c1	VERO		H37Rv			MIC	12.5 µg/mL
NNC(=O)c1ccncc1			ATCC 35338	resazurin		MIC	<0.06 µg/mL
CCOC(=O)c1cc(CNc2cc(OC)cc(OC)c2)on1			H37Rv	low oxygen		MIC	28.2 µM
Nc1cccc(C(=O)/C=C/c2ccccc2I)c1						EC50	<12.5 µg/mL
O=c1oc2ccc(Cl)cc2c(=S)n1-c1ccc(Cl)cc1			My 331/88			MIC	0.5 µM
CC1(C)CCc2c(c3ccccc3c3[nH]c(-c4ccccc4Br)nc23)O1			ATCC 35338	resazurin		MIC	15.3 µg/mL
O=[N+]([O-])c1ccc2c(c1)nc(-c1ccccn1)n2CCc1ccncc1			H37Rv	resazurin		MIC bound	>6.25 µg/mL
NC(=O)c1cnccn1			Isolate 98-36			MIC	900 µg/mL
COc1ccc(/C=C/C(=O)c2ccc(F)cc2O)cc1		12.5 µg/mL	H37Rv			inhibition	63%
CC(=O)NC[C@H]1CN(c2ccc(-c3ccc(CNCc4cn[nH]n4)cc3)c(F)c2)C(=O)O1			H37Rv	resazurin		EC90	0.03 µg/mL
CCCCCCCCCCCCCCC1CCC(CC(=O)OC)O1						MIC	>128 µg/mL
COC(=O)/C(=C/Cc1ccc(Cl)cc1)CN=[N+]=[N-]			H37Rv	resazurin		MIC	>128 µM
CO[C@H]1/C=C/O[C@@]2(C)Oc3c(C)c(O)c4c(O)c(c(/C=N/N5CCN(C6CCCC6)CC5)c(O)c4c3C2=O)NC(=O)/C(C)=C\C=C\[C@H](C)[C@H](O)[C@@H](C)[C@@H](O)[C@@H](C)[C@H](OC(C)=O)[C@@H]1C			H37Rv	resazurin		MIC90	<0.15 µM
CCCCCCCOc1ccccc1NC(=O)OCC[NH+]1CCCC1			My 331/88			MIC	32 µM
CCCCO/N=C/c1c2c(O)c3c(O)c(C)c4c(c3c1O)C(=O)[C@@](C)(O/C=C/[C@H](OC)[C@@H](C)[C@@H](OC(C)=O)[C@H](C)[C@H](O)[C@H](C)[C@@H](O)[C@@H](C)/C=C/C=C(/C)C(=O)N2)O4			H37Rv			MIC	0.1 µg/mL
CCOC(=O)c1cc(-c2cccc(N)c2)on1			H37Rv	resazurin		MIC	1.6 µM
CCOC(=O)c1oc2cc(O)cc(C)c2c1C		12.5 µg/mL	H37Rv	BACTEC		inhibition	21%
C/C=C/CO/N=C/c1c2c(O)c3c(O)c(C)c4c(c3c1O)C(=O)[C@@](C)(O/C=C/[C@H](OC)[C@@H](C)[C@@H](OC(C)=O)[C@H](C)[C@H](O)[C@H](C)[C@@H](O)[C@@H](C)/C=C/C=C(/C)C(=O)N2)O4			H37Rv			MIC	0.1 µg/mL
NNC(=O)C(=O)NN						EC50	<0.25 µg/mL
CCOC(=O)c1cc(CNc2cc(F)cc(F)c2F)on1			H37Rv	low oxygen		MIC	108.9 µM
O=c1oc2ccc(Cl)cc2c(=S)n1-c1ccccc1			My 331/88			MIC	1 µM
CC1(C)OCC(C2OC3OC(C)(C)OC3C2NN)O1			H37Rv	BACTEC		MIC bound	>12.5 µg/mL
COc1ccc2c(N/N=C/c3c(OC)ccc4ccccc34)ccnc2c1	VERO		H37Rv			MIC	6.25 µg/mL
CCOC1CCCC(CC(=O)NNc2ccccc2)C1O		12.5 µg/mL	H37Rv	BACTEC		inhibition	9%
S=c1[nH]c2ccccc2c(=S)n1-c1ccc(Cl)cc1			331/81			MIC	32 µM
CC(C)=CCC1C(=O)C(CC=C(C)C)(CC=C(C)C)C(O)C(C(=O)C(C)C)C1O			Isolate N			MIC	40.6 µg/mL
O=C(Nc1ccc(C(F)(F)F)c([N+](=O)[O-])c1)c1ccc(C(=O)Nc2ccc(C(F)(F)F)c([N+](=O)[O-])c2)cc1		12.5 µg/mL	H37Rv	BACTEC		inhibition	0%
CCOC(=O)c1cc(CNc2cccc3ccccc23)on1			H37Rv	low oxygen		MIC	7.6 µM
CCn1cc(C(=O)O)c(=O)c2ccc(C)nc21			BCG		gyrA mutation A90V	MIC90	>50 µM
S=C([S-])N(Cc1ccccc1)CN(C(=S)[S-])c1ccccc1.[Na+].[Na+]			H37Rv	BACTEC		MIC	≥12.5 µg/mL
S=c1oc2ccc(Cl)cc2c(=S)n1-c1ccc(Br)cc1			My 331/88			MIC	0.5 µM
O=C(CNNc1ccc([N+](=O)[O-])cn1)Nc1ccc(S(=O)(=O)c2ccc(NC(=O)CNNc3ccc([N+](=O)[O-])cn3)cc2)cc1		12.5 µg/mL	H37Rv	BACTEC		inhibition	17%
O=c1oc2ccc(Cl)cc2c(=O)n1-c1ccc(Cl)cc1			My 331/88			MIC	4 µM
COc1ccc2c(N/N=C/c3ccc4c(c3)OCO4)cc(C)nc2c1	VERO	12.5 µg/mL	H37Rv			inhibition	100%
CCOC(=O)c1cc(CN(C)c2ccc(C(F)(F)F)cc2)on1			H37Rv	resazurin		MIC	1.8 µM
CO[C@H]1/C=C/O[C@@]2(C)Oc3c(C)c(O)c4c(O)c(c(/C=N/OCCCc5ccccc5)c(O)c4c3C2=O)NC(=O)/C(C)=C\C=C\[C@H](C)[C@H](O)[C@@H](C)[C@@H](O)[C@@H](C)[C@H](OC(C)=O)[C@@H]1C			H37Rv			MIC	1 µg/mL
Cc1[nH]c2ccc(N(C)C)cc2c(=O)c1C		12.5 µg/mL	H37Rv	BACTEC		inhibition	10%
COc1cc2c3c(cc4ccccc4c3c1OC)NC2=O						MIC	12 µg/mL
COc1cccc(NC(=O)OCC[NH+]2CCCC2)c1			My 331/88			MIC	>1000 µM
CCCCc1ccc2nc(C)cc(N/N=C/c3ccc(OC)c4ccccc34)c2c1	VERO		H37Rv			MIC	6.25 µg/mL
CCCCCCCOc1cccc(NC(=O)OCC[NH+]2CCCC2)c1			My 331/88			MIC	32 µM
CCCCCCCCCCCCCCCC(=O)Nc1ccn([C@H]2CC[C@@H](COP(=O)(O)OC[C@H]3O[C@@H](n4ccc(NC(=O)CCCCCCCCCCCCCCC)nc4=O)C[C@@H]3OP(=O)(O)OC[C@H]3O[C@@H](n4cc(C)c(=O)[nH]c4=O)C[C@@H]3N=[N+]=[N-])O2)c(=O)n1		6.25 µg/mL	H37Rv	resazurin		inhibition	-7%
COc1cc2c3c(cc4ccccc4c3c1OC)N(C)C(=O)C2=O						MIC	32 µg/mL
Nc1cccc(-c2cc(C(F)(F)F)nc3c(C(F)(F)F)cccc23)c1						MIC	55 µM
CO[C@H]1/C=C/O[C@@]2(C)Oc3c(C)c(O)c4c(O)c(c(/C=N/OCCOc5ccccc5)c(O)c4c3C2=O)NC(=O)/C(C)=C\C=C\[C@H](C)[C@H](O)[C@@H](C)[C@@H](O)[C@@H](C)[C@H](OC(C)=O)[C@@H]1C			H37Rv			MIC	0.2 µg/mL
O=[N+]([O-])c1ccc(-c2nc3ccc(F)cc3[nH]2)o1		12.5 µg/mL	H37Rv	BACTEC		inhibition	100%
CCCCCCCCCCCCCC1CCCC(CC(=O)OC)O1						MIC	>128 µg/mL
S=c1oc2c(Cl)cc(Cl)cc2c(=S)n1-c1cccc(Cl)c1			331/81			MIC	8 µM

ECn: concentration that inhibits the pathogen or its effect by n%. MIC bound comes from a single tested concentration. Conditions beyond the fields shown may differ between rows. Inhibition is in % at the dose shown (toxicity tests: loss of growth or viability). Two numbers with a dash give a range or band. Blank or dashed fields: not listed here.